Results of unrelated studies side by side (data: NIAID ChemDB).

Common to all: whole-cell or culture tests; species: Herpes simplex virus 1

An empty or dashed field is not shown. ECn: concentration that inhibits the pathogen or its effect by n%. a–b is a range or a potency band. Lines come from different laboratories, so protocols vary.

structure | read-out | method | cells | strain | value
Nc1nc2c(ncn2COCCOP(=O)(O)O[C@@H]2[C@H](O)[C@@H](COP(=O)(O)O[C@@H]3[C@H](O)[C@@H](CO)O[C@H]3n3cnc4c(N)ncnc43)O[C@H]2n2cnc3c(N)ncnc32)c(=O)[nH]1 | EC50 | cytopathic effect | PRK | B2006 (TK-) | >100 µg/mL
Cn1cc(C(=O)NCc2ccc(Cl)cc2)c(=O)c2cc(CN3CCOCC3)ccc21 | EC50 | plaque count | HFF | 11359 (ACV-resistant) | 2.9 µM
Nc1nc(=O)n([C@@H]2S[C@H](CO)[C@@H](O)[C@@H]2F)cc1I | EC50 | cytopathic effect |  | VR | 0.037 µg/mL
Cc1cc([C@H]2C[C@H](O)[C@@H](CO)O2)c(Cl)cc1F | EC50 | cytopathic effect | E6SM | McIntyre | >400 µg/mL
C[C@@H](c1ccccc1)N(CC(=O)Nc1ccc(-c2csc(N)n2)cc1)C(=O)c1ccncc1 | EC50 | plaque count | BHK-21/C13 |  | 0.027 µM
CCc1cn([C@H]2C[C@H](O)[C@@H](CO)O2)c(=O)[nH]c1=O | EC50 | cytopathic effect | Primary rabbit kidney cells | KOS | 1 µg/mL
Cc1cc([C@@H]2C[C@H](O)[C@@H](CO)O2)c(F)cc1Cl | EC50 | cytopathic effect | E6SM | KOS/ACV-R | >400 µg/mL
O=c1c2ncn(COCCO)c2[nH]c2ncc(CO)n12 | EC50 | cytopathic effect |  | F | >3.2 µg/mL
Nc1nc2c(ncn2COCCO)c(=O)[nH]1 | EC50 | plaque count | VERO | MGH 10 | 1 µM
Nc1nc2c(ncn2CC[C@@H](O)CO)c(=O)[nH]1 | EC50 | plaque count | Primary mouse cells | C42 | 0.2 µM
O=c1[nH]c(=O)n([C@H]2C[C@H](O)[C@@H](CO)O2)cc1I | MIC |  |  | JAH | 1.1 µg/mL
Nc1ccn([C@@H]2O[C@H](CO)[C@@H](O)[C@@H]2O)c(=O)n1 | EC50 | cytopathic effect | Primary rabbit kidney cells | KOS | 0.04 µg/mL
O=C(NCc1ccc(Cl)cc1)c1cn2c3c(cc(CN4CCOCC4)cc3c1=O)OC(c1cccnc1)C2 | EC50 | plaque count | HFF | 11893 (ACV-resistant) | 5.6 µM
Nc1nc2c(ncn2COCCO)c(=O)[nH]1 | EC50 | cytopathic effect | HFF | T18327-1 acyclovir-susceptible | 0.5 µg/mL
CC(=O)OCCOCn1cnc2c(=O)n3cc(-c4ccc5ccccc5c4)[nH]c3nc21 | EC50 | cytopathic effect |  | KOS | >16 µg/mL
CC(=O)OCCOCN1C(=O)C=CN(COCCO)S1(=O)=O | EC50 |  | E6SM | F | >400 µg/mL
Nc1ncnc2c1ncn2[C@@H]1O[C@H](CO)[C@@H](O)[C@H]1OP(=O)(O)OC[C@H]1O[C@@H](n2cnc3c(N)ncnc32)[C@H](OP(=O)(O)OC[C@H]2O[C@@H](n3cc(F)c(=O)[nH]c3=O)C[C@@H]2O)[C@@H]1O | EC50 | cytopathic effect | PRK | McIntyre | 20 µg/mL
O=C1C=CN(COCCO)S(=O)(=O)N1COCCO | EC50 |  | E6SM | McIntyre | >400 µg/mL
OC[C@H]1O[C@@H](c2cc(C(O)C(I)I)c(F)cc2F)C[C@@H]1O | EC50 | cytopathic effect | E6SM | TK-deficient acyclovir-resistant | >80 µg/mL
OC[C@H]1O[C@@H](c2cc(Cl)c(F)cc2F)C[C@@H]1O | EC50 | cytopathic effect | E6SM | VMW 1837 | >400 µg/mL
O=c1c2ncn(COCCO)c2[nH]c2ncc(C(c3ccccc3)(c3ccccc3)c3ccccc3)n12 | EC50 | cytopathic effect |  | VMW 1837 | >16 µg/mL
OC[C@H]1O[C@H](c2cc(I)c(F)cc2F)C[C@@H]1O | EC50 | cytopathic effect | E6SM | KOS | >400 µg/mL
Nc1ncnc2c1ncn2[C@@H]1O[C@H](COP(=O)(O)O)[C@@H](O)[C@@H]1O | EC50 | plaque count | MEF | Clinical isolate HL-34 | 27 µM
OC[C@H]1O[C@@H](c2ccc(F)cc2F)C[C@@H]1O | EC50 | cytopathic effect | E6SM | KOS | >400 µg/mL
CC(=O)OCCOCN1C(=N)/C(=C(\C)O)C(N)=NS1(=O)=O | EC50 |  | E6SM | F | >400 µg/mL
OC[C@H]1O[C@@H](c2cc(C(O)CBr)c(F)cc2F)C[C@@H]1O | EC50 | cytopathic effect | E6SM | KOS | >3.2 µg/mL
Nc1nc(Cl)nc2c1ncn2[C@H]1S[C@H](CO)[C@@H](O)[C@@H]1F | EC50 | cytopathic effect |  | VR | >27 µg/mL
CCCCC(=O)OC[C@H]1O[C@@H](n2cnc3c(N)ncnc32)[C@@H](O)[C@@H]1O | EC50 | plaque count | MEF | Clinical isolate Wilson | 11 µM
Cc1cn([C@@H]2CO[C@H](CO)[C@@H](O)C2)c(=O)[nH]c1=O | EC50 | cytopathic effect | E6SM | TK-/TK+ (VMW 1837) | >20 µg/mL
Nc1nc2c(ncn2COC(CO)CO)c(=O)[nH]1 | EC50 | plaque count | VERO H | 1760 | 0.3 µM
COc1cc(F)c([C@H]2C[C@H](O)[C@@H](CO)O2)cc1[N+](=O)[O-] | EC50 | cytopathic effect | E6SM | KOS/ACV-R | >400 µg/mL
O=c1[nH]c(=O)n([C@H]2S[C@H](CO)[C@@H](O)[C@@H]2F)cc1CCO | EC50 | cytopathic effect |  | VR | >27 µg/mL
COCc1cn([C@H]2C[C@H](O)[C@@H](CO)O2)c(=O)[nH]c1=O | EC50 | plaque count | RK-13 | ACG-resistant | >1138 µM
Nc1nc(=O)n([C@@H]2O[C@H](CO)[C@@H](O)[C@@H]2F)cc1I | EC50 | plaque count | VERO | Shealey | 0.5 µM
Cc1cn([C@H]2CO[C@H](CO)[C@@H](O)C2)c(=O)[nH]c1=O | EC50 | cytopathic effect | E6SM | KOS | >20 µg/mL
N#Cc1cc([C@H]2C[C@H](O)[C@@H](CO)O2)c(F)cc1F | EC50 | cytopathic effect | E6SM | KOS | >400 µg/mL
Nc1nc2c(ncn2COCCO)c(=O)[nH]1 | EC50 | cytopathic effect | PRK | 1 (PAA-resistant) | 0.2 µg/mL
O=c1c2ncn(COC(CO)CO)c2nc2[nH]c(-c3ccccc3)cn12 | EC50 | cytopathic effect |  | KOS | 0.02 µg/mL
N#CC1=CN(COCCO)S(=O)(=O)N=C1N | EC50 |  | E6SM | B206 (TK-) | >400 µg/mL
O=C(NCc1ccc(Cl)cc1)c1c[nH]c2ccc(C#CCO)cc2c1=O | EC50 | plaque count |  | 294 | 15 µM
Nc1nc2c(ncn2CCC(CO)CO)c(=O)[nH]1 | EC50 | plaque count | VERO | KOS | 1.07 µM
O=c1[nH]c(=O)n([C@@H]2S[C@H](CO)[C@@H](O)[C@@H]2F)cc1CCO | EC50 | cytopathic effect |  | VR | 27 µg/mL
Cc1[nH]c2nc3c(ncn3COCCO[Si](C)(C)C(C)(C)C)c(=O)n2c1C(c1ccccc1)(c1ccccc1)c1ccccc1 | EC50 | cytopathic effect |  | VMW 1837 | 10 µg/mL
Nc1ncnc2c1ncn2C[C@@H](CO)OCP(=O)(O)O | EC50 | cytopathic effect | PRK | McIntyre | 1–3 µg/mL
Nc1ncnc2c1ncn2[C@H]1CO[C@H](CO)[C@@H](O)C1 | EC50 | cytopathic effect | E6SM | KOS | >20 µg/mL
CCOC(=O)C1=CN(COCCO)S(=O)(=O)NC1=O | EC50 |  | E6SM | F | >400 µg/mL
Nc1nc2c(ncn2CCCC(CO)CO)c(=O)[nH]1 | EC50 | plaque count | VERO | 7935-72 | 0.2 µM

The last 3 rows once more:

structure,read-out,method,cells,strain,value
Nc1ncnc2c1ncn2[C@H]1CO[C@H](CO)[C@@H](O)C1,EC50,cytopathic effect,E6SM,KOS,>20 µg/mL
CCOC(=O)C1=CN(COCCO)S(=O)(=O)NC1=O,EC50,,E6SM,F,>400 µg/mL
Nc1nc2c(ncn2CCCC(CO)CO)c(=O)[nH]1,EC50,plaque count,VERO,7935-72,0.2 µM